Experimental data: PubChem BioAssay AID504761 (Drosophila RNAi Screening Center, 2011)
The screen tested about 22,000 reagents; this is an unselected part of those that have a named target and a result. In the full data, 116 (0.52%) got an active call. 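Calls depend on retest data that are not deposited; infection was ranked per plate without normalising between plates; the unit of the infection score is not given.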 The raw values are shown without normalisation. Not all columns of the deposit are shown. Not given: the amount of reagent, the time to read-out.

Assay: 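Insect host genes that dengue virus relies on to spread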 (primary screen)
Cell system: D.Mel-2 cells from Drosophila
Knock-down reagent: long dsRNA against Drosophila genes
Challenge: infection with dengue virus type 2; dose and infection time not stated
Detection: 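Per well on two replicate plates, imaging gave the percent of cells positive for viral envelope protein, ranked by infection, and a nuclear count of cells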
Reading the numbers: infection score: higher = more virus-infected cells; cell count: higher = more cells in the well
Rule for the call: 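Low infection ranks in the two replicates (chance level up to 0.065) followed by a retest with a 1.5-fold or larger significant decrease, p below 0.05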
Meaning of the calls: active = confirmed: knock-down lowers infection; inactive = not picked or not confirmed

Silencing of CG32301 [DRSC08613] resulted in: infection score, replicate 1 = 1.56; cell count, replicate 1 = 5829; inactive. With knock-down of Actn3 [DRSC14106], the record shows infection score, replicate 1 = 3.14; cell count, replicate 1 = 6614; inactive. With knock-down of CG4957 [DRSC02793], the record shows infection score, replicate 1 = 0.62; cell count, replicate 1 = 6471; active. With knock-down of CG4957 [DRSC29454] the results were infection score, replicate 1 = 17.3; cell count, replicate 1 = 5080; inactive. Knock-down of TotM [DRSC02355] gave: infection score, replicate 1 = 15.9; cell count, replicate 1 = 5893; inactive. After knock-down of CG2111 [DRSC18205], the screen gave infection score, replicate 1 = 2.26; cell count, replicate 1 = 6516; inactive.

After knock-down of CG2111 [DRSC27609], the screen gave infection score, replicate 1 = 3.26; cell count, replicate 1 = 6772; inactive.

Sorted by “infection score, replicate 1” (high to low): 2 of the entries above.
TotM [DRSC02355] → infection score, replicate 1: 15.9; cell count, replicate 1: 5893; Outcome: inactive
CG2111 [DRSC18205] → infection score, replicate 1: 2.26; cell count, replicate 1: 6516; Outcome: inactive

The results go on:
Pop4 [DRSC10955] scored infection score, replicate 1 = 11.2; cell count, replicate 1 = 5652; inactive. Silencing of Pop4 [DRSC29825] came out at: infection score, replicate 1 = 17.6; cell count, replicate 1 = 6575; inactive. Against stretch (retired record) [DRSC14512], the entry reads infection score, replicate 1 = 5.25; cell count, replicate 1 = 6151; inactive. Depletion of stretch (retired record) [DRSC14541] resulted in: infection score, replicate 1 = 3.72; cell count, replicate 1 = 6157; inactive. Against stretch (retired record) [DRSC14542], the values are infection score, replicate 1 = 5.67; cell count, replicate 1 = 5664; inactive. After knock-down of stretch (retired record) [DRSC14543], the record shows infection score, replicate 1 = 5.96; cell count, replicate 1 = 6729; inactive.

stretch (retired record) [DRSC23038] scored infection score, replicate 1 = 1.51; cell count, replicate 1 = 6272; inactive. For stretch (retired record) [DRSC28624], the values are infection score, replicate 1 = 11.2; cell count, replicate 1 = 6002; inactive. Silencing of stretch (retired record) [DRSC29228] gave: infection score, replicate 1 = 4.69; cell count, replicate 1 = 1108; inactive. Silencing of stretch (retired record) [DRSC36547] resulted in: infection score, replicate 1 = 5.45; cell count, replicate 1 = 6610; inactive. Depletion of CG12909 [DRSC06224] resulted in: infection score, replicate 1 = 17.4; cell count, replicate 1 = 5732; inactive. For CG12909 [DRSC27706], the entry reads infection score, replicate 1 = 8.02; cell count, replicate 1 = 6621; inactive.

beat-Ib [DRSC03490] gave infection score, replicate 1 = 22; cell count, replicate 1 = 5821; inactive. After knock-down of c-cup [DRSC00458], the screen gave infection score, replicate 1 = 3.36; cell count, replicate 1 = 6392; inactive.
